Compound potency records, mixed from different reports. Data source: NIAID ChemDB in PubChem.

All rows: tests in culture; organism: Rhinovirus

An empty or dashed field is not shown.

structure	read by	read-out	cells	strain or isolate	result
Cc1cc(CCCCCCCOc2ccc(C3=NCCO3)cc2)on1		MIC		TYPE 14	0.4 µM
CSc1nsc(-c2ccc(OCCCOc3ccc(C#N)cc3)cc2)c1C#N	cytopathic effect	EC50	HELA-OHIO	Serotype 29 (group B)	>2 µM
CCCn1nc2ccc(OCCC3CCN(c4ccc(C)nn4)CC3)cc2n1	cytopathic effect	EC50	MRC-5	Serotype 14	0.139 µg/mL
O=C(c1ccccc1)c1ccc(Oc2ccc(S(=O)(=O)Cc3ccccc3)cn2)cc1	cytopathic effect	EC50	HeLa	TYPE 64	>10 µg/mL
Cc1cc(CCCOc2cc(Cl)c(-c3nnc(C)o3)c(Cl)c2)on1		MIC50		serotype 2 1A 1B 6 14 21 22 15 25 30 50 67 89 86 41	0.054 µg/mL
Cc1ccc(C(=O)CCCCCCOc2ccc(C3=NCCO3)cc2)s1	cytopathic effect	EC50	HeLa	TYPE 2	10.8 µM
O=P1(O)OCC2O[C@@H](n3cnc4c(SCc5ccccc5)ncnc43)[C@H](O)C2O1		MIC		TYPE 13	3.2–32 µg/mL
CSc1nsc(-c2ccc(OCCc3ccccc3)cc2)c1C#N	cytopathic effect	EC50	HELA-OHIO	Serotype 41 (group B)	>20 µM
CCOc1ccc2nc([C@H](O)[C@@H](O)c3nc4ccc(OCC)cc4[nH]3)[nH]c2c1	cytopathic effect	EC50	WI-38	Serotype 42	1 µg/mL
CO/N=C/c1ccc(OCCCCN2CCN(c3ccc(C)nn3)CC2)cc1	cytopathic effect / visual reading	EC50	KB	TYPE 1A	0.04 µg/mL
CCOc1nc2ccc(OCCC3CCN(c4nnnn4C)CC3)cc2o1	cytopathic effect	EC50	MRC-5	Serotype 2	0.237 µg/mL
CCOC(=O)c1ccc(OCCC2CCN(c3ccc(C)nn3)CC2)cc1	neutral red	EC50	KB	1983-CV48 (ICAM-1 receptor group 66)	0.002 µM
CSc1ncnc2c1ncn2[C@@H]1OC2COP(=O)(O)OC2[C@H]1O		MIC		TYPE 8	3.2 µg/mL
COC(=O)C(Cc1ccc(OCCCCCCC(=O)c2ccc(C)s2)cc1)NC(C)=O	cytopathic effect	EC50	HeLa	TYPE 2	>83 µM
CCCCc1nc2ccc(OCCC3CCN(c4ccc(C)nn4)CC3)cc2o1	cytopathic effect	EC50	MRC-5	Serotype 2	0.13 µg/mL
CSc1nsc(-c2ccc(OS(=O)(=O)c3ccc(C)cc3)cc2)c1C#N	cytopathic effect	EC50	HELA-OHIO	Serotype 59 (group B)	>25 µM
Cc1ccc(C(=O)CCCCOc2ccc(C3=NCCO3)cc2)cc1	cytopathic effect	EC50	HeLa	Serotype 2	>296 µM
CCOc1cc(CCCOc2c(C)cc(-c3noc(C)n3)cc2C)on1	cytopathic effect	EC50	HeLa	Serotype 50	0.07 µg/mL
CO/N=C/c1ccc(OCCC2CCN(c3ccc(C)nn3)CC2)cc1	cytopathic effect / visual reading	EC50	KB	TYPE 1A	<0.0032 µg/mL
CCOC(=O)CCCN1C(=O)c2ccccc2C(C(=O)c2ccccc2)C1=O	plaque count	EC50	HeLa	Serotype 14	15.8 µM
O=[N+]([O-])c1ccc(Cn2cnc3c(Nc4cccc(F)c4)nc(C(F)(F)F)nc32)cc1	plaque count	EC50	M-HELA	Serotype 1B	1.5 µM
CSc1nc2ccc(OCCC3CCN(c4ccc(C)nn4)CC3)cc2o1	cytopathic effect	EC50	MRC-5	Serotype 2	0.099 µg/mL
CCOC(=O)c1ccc(OCCCCC(=O)c2ccc(C)s2)cc1	cytopathic effect	EC50	HeLa	TYPE 14	1.8 µM
CSc1nsc(-c2ccc(OCCOc3ccccc3)cc2)c1C#N	cytopathic effect	EC50	HELA-OHIO	Serotype 9 (group B)	>20 µM
COc1ccc(C(=O)CCCCOc2ccc(C3=NCCO3)cc2)cc1	cytopathic effect	EC50	HeLa	Serotype 14	0.4 µM
Cc1cc(CCCCCCCOc2ccc(C3=NCCO3)cc2)on1	cytopathic effect	EC50	HeLa	TYPE 14	1.76 µM
CCCc1nc2ccc(OCCC3CCN(c4ccc(C)nn4)CC3)cc2o1	cytopathic effect	EC50	MRC-5	Serotype 14	0.028 µg/mL
CCOC(=O)c1cc(Cl)c(OCCCCC(=O)c2ccc(OC)cc2)c(Cl)c1	cytopathic effect	EC50	HeLa	Serotype 14	5.3 µM
CS(=O)(=O)c1ccc(Oc2ccc(C(=O)c3ccccc3)cc2)nc1	cytopathic effect	EC50	HeLa	TYPE 13	>5 µg/mL
Cc1ccc(Cn2cnc3c(N(C)C)nc(C(F)(F)F)nc32)cc1	plaque count	EC50	M-HELA	TYPE 14	1.2 µM
COc1ccc2nc([C@H](O)[C@@H](O)c3nc4ccc(OC)cc4[nH]3)[nH]c2c1	cytopathic effect	EC50	WI-38	Serotype 42	0.1 µg/mL
Cc1ccc(C(=O)CCCCOc2ccc(C3=NCCO3)cc2)cc1Cl	cytopathic effect	EC50	HeLa	Serotype 2	>269 µM
N=C(N)c1ccc(C2CCc3cc(C(=N)N)ccc3O2)cc1	cytopathic effect	EC50	HeLa	Serotype 1B	>40 µM
COc1ccc2nc([C@H](OC(C)=O)[C@@H](OC(C)=O)c3nc4ccc(OC)cc4[nH]3)[nH]c2c1	cytopathic effect	EC50	WI-38	Serotype 1A	10 µg/mL
Cc1nc(-c2cc(C)c(OCCCc3cc(C4CC4)no3)c(C)c2)no1	cytopathic effect	EC50	HeLa	Serotype 21	0.009 µg/mL
CSc1nsc(-c2ccc(OCCCCOc3ccc([N+](=O)[O-])cc3)cc2)c1C#N	cytopathic effect	EC50	HELA-OHIO	Serotype 2 (group B)	>0.5 µM
Cc1cc(CCCCCOc2ccc(C3=NCCO3)c(C)c2)on1		MIC		TYPE 2	1.2 µM
Cc1ccc(C(=O)CCCCOc2ccc(C3=NC(C)CO3)cc2)s1	cytopathic effect	EC50	HeLa	TYPE 2	1.7 µM
O=C(CCCCOc1ccc(C2=NCCO2)cc1)c1ccc(F)cc1	cytopathic effect	EC50	HeLa	Serotype 14	13.2 µM
CO/N=C/c1cc(C)c(OCCC2CCN(c3ccc(Cl)nn3)CC2)c(C)c1	cytopathic effect / visual reading	EC50	MRC-5	TYPE 2	0.09 µg/mL
Fc1cccc(Cn2cnc3c(Nc4cccc(F)c4)nc(C(F)(F)F)nc32)c1	plaque count	EC50	M-HELA	Serotype 41	5.6 µM
N#Cc1ccc(C2=Cc3cc(C#N)ccc3OC2)cc1	cytopathic effect	EC25	HeLa	Serotype 1B	8 µM
Cc1cc(CCCOc2c(C)cc(-c3noc(C)n3)cc2C)on1		MIC		Serotype 14	0.07 µM
CSc1ccc(C(=O)CCCCOc2ccc(C3=NCCO3)cc2)cc1	cytopathic effect	EC50	HeLa	Serotype 14	5.1 µM
CO/N=C/c1cc(C)c(OCCCc2cc(C)no2)c(C)c1	cytopathic effect / visual reading	EC50	MRC-5	TYPE 2	<0.05 µg/mL
CCOC(=O)CCCN1C(=O)Cc2ccccc2C1=O	plaque count	EC50	HeLa	Serotype 14	25.1 µM
COc1ccc2nc([C@@H](O)[C@@H](O)c3nc4ccc(OC)cc4[nH]3)[nH]c2c1	cytopathic effect	EC50	WI-38	Serotype 1A	10 µg/mL
Clc1ccc(N2CCC(CCOc3ccc(/C=N/OCc4ccccc4)cc3)CC2)nn1	cytopathic effect / visual reading	EC50	KB	TYPE 1A	>1 µg/mL
CCCCN1C(=O)c2ccccc2C(C(C)=O)C1=O	plaque count	EC50	HeLa	Serotype 14	4.2 µM
Cc1cc(CCCOc2c(C)cc(-c3nnn(C)n3)cc2C)on1		MIC		Serotype 14	2.3 µM
CS(=O)(=O)c1cnc2c(c1)CCC(c1ccc(Cl)c(Cl)c1)O2	plaque count	EC50	HeLa	Serotype 1A	<0.5 µg/mL
CCO/N=C/c1cccc(OCCC2CCN(c3ccc(Cl)nn3)CC2)c1	cytopathic effect / visual reading	EC50	MRC-5	TYPE 2	<0.001 µg/mL
Cc1c(-c2ccccc2)n(-c2ccc(F)cc2)c2ccc(C(C)C)cc2c1=O	cytopathic effect	EC50	HELA-OHIO	39/209	0.018 µg/mL
CSCCCN1C(=O)c2ccccc2C(CC(=O)c2ccccc2)C1=O	plaque count	EC50	HeLa	Serotype 14	27.7 µM
Cc1cc(CCCCCOc2cc(Cl)c(-c3nnco3)c(Cl)c2)on1		MIC80		Serotype 41	2.76 µg/mL
Cc1cc(CCCOc2c(C)cc(-c3coc(C)n3)cc2C)on1	plaque count	EC50		Serotype 1	0.347 µg/mL
CCO/N=C/c1ccc(OCCC2CCN(c3ccc(C)nn3)CC2)cc1O	cytopathic effect / visual reading	EC50	KB	TYPE 1A	<0.0032 µg/mL
Cc1ccc(C(=O)CCCCOc2ccc(C3=N[C@H](C)CO3)cc2)s1	cytopathic effect	EC50	HeLa	TYPE 14	1.96 µM
CCn1c2c(c(=O)c3cc(C(C)C)ccc31)Cc1ccccc1-2	cytopathic effect	EC50	HELA-OHIO	TYPE 1B/B632	0.54 µg/mL
CCOC(=O)c1cc(Cl)c(OCCCCC(=O)c2ccc(Cl)cc2)c(Cl)c1	cytopathic effect	EC50	HeLa	Serotype 2	5.5 µM
CNC(=O)/C=C(\c1ccccc1)c1ccc2nc(N)c(-c3ccc(F)cc3C(F)(F)F)n2c1	cytopathic effect	EC50	H-HELA	TYPE 14	0.48 µg/mL
N=C(N)c1ccc(C2=Cc3cc(C(=N)N)ccc3OC2)cc1	plaque count	EC50	HeLa	Serotype 1B	12.8 µM
CSc1nsc(-c2ccc(OC(C)(C)C)cc2)c1C#N	cytopathic effect	EC50	HELA-OHIO	Serotype 9 (group B)	5 µM
CCOC(=O)c1ccc(OCCC2CCN(c3ccc(C)nn3)CC2)cc1	cytopathic effect	EC50	HELA-OHIO	Serotype 45 (group A)	>19 µM
CNC(=O)/C=C(\c1ccccc1)c1ccc2nc(N)cn2c1	plaque count	EC50	H-HELA	TYPE 14	>10 µg/mL
CSc1ccc(C(=O)CCCCOc2ccc(C#N)cc2)cc1	cytopathic effect	EC50	HeLa	Serotype 2	>307 µM
Cc1cc(CCCCCOc2cc(Cl)c(-c3nnc(C)o3)c(Cl)c2)on1		MIC80		Serotype 15	0.42 µg/mL
CCOC(=O)c1ccc(OCCCCC(=O)c2ccc(C)cc2)cc1	cytopathic effect	EC50	HeLa	Serotype 14	2.6 µM
N#Cc1ccc(C2COc3ccccc3C2)cc1	plaque count	EC50	HeLa	Serotype 1B	1.47 µM
CSc1nsc(-c2ccc(O)cc2)c1C#N	cytopathic effect	EC50	HELA-OHIO	Serotype 15 (group B)	>10 µM
Cc1c(-c2ccccc2)n(-c2cccc(F)c2)c2ccc(C(C)C)cc2c1=O	cytopathic effect	EC50	HELA-OHIO	TYPE 2/ HGP	0.03 µg/mL
CNC(=O)/C=C(\c1ccccc1)c1ccc2nc(N)c(SC(C)C)n2c1	cytopathic effect	EC50	H-HELA	TYPE 14	0.21 µg/mL
Cc1cc(CCCOc2c(C)cc(-c3nnn(C)n3)cc2C)on1	plaque count	EC50		Serotype 1	0.03 µg/mL
CSc1nsc(-c2ccc(OCCOc3ccc([N+](=O)[O-])cc3)cc2)c1C#N	cytopathic effect	EC50	HELA-OHIO	Serotype 85 (group B)	>2 µM
COCc1cc(CCCOc2c(Cl)cc(-c3noc(C)n3)cc2Cl)on1	cytopathic effect	EC50	HeLa	Serotype 67	0.067 µg/mL

Lines come from different laboratories, so protocols vary. ECn: concentration that inhibits the pathogen or its effect by n%. Two numbers with a dash give a range or band. A number after MIC or MFC names an inhibition level or a share of isolates.